The experiment relates to Zika virus. Briefly: Antiviral activity against Zika virus harboring subgenomic GFP replicon infected in African green monkey Vero cells assessed as reduction in viral infection at 100 uM preincubated for 30 mins followed by viral infection and measured after 72 hrs. Type of experiment: functional, organism-based. In general terms: A replicon is a self-replicating genome or part of one, used to study replication in cells.

The source made the active and inactive calls. The rule behind the calls is not given here.

Consider `[N-]=[N+]=NCc1cc(CN=[N+]=[N-])cc(-c2cc(CN=[N+]=[N-])cc(Cn3cc(COCCOCc4cn(Cc5cc(CN=[N+]=[N-])cc(-c6cc(CN=[N+]=[N-])cc(CN=[N+]=[N-])c6)c5)nn4)nn3)c2)c1`, for which the outcome was Active.
With `[N-]=[N+]=NCc1cc(CN=[N+]=[N-])cc(-c2cc(CN=[N+]=[N-])cc(Cn3cc(COCCOCCOCCOCc4cn(Cc5cc(CN=[N+]=[N-])cc(-c6cc(CN=[N+]=[N-])cc(CN=[N+]=[N-])c6)c5)nn4)nn3)c2)c1` the entry was “Active”; with `[N-]=[N+]=NCc1cc(CN=[N+]=[N-])cc(-c2cc(CN=[N+]=[N-])cc(Cn3cc(COCCOCCOCCOCCOCCOCc4cn(Cc5cc(CN=[N+]=[N-])cc(-c6cc(CN=[N+]=[N-])cc(CN=[N+]=[N-])c6)c5)nn4)nn3)c2)c1`, “Active”; with `[N-]=[N+]=NCc1cc(CN=[N+]=[N-])cc(-c2cc(CN=[N+]=[N-])cc(CN=[N+]=[N-])c2)c1`, “Active”.
